Anti-infective test results gathered from many reports (values: NIAID ChemDB through PubChem).

All rows: host cell toxicity; cells: VERO; measure: CC50

An empty or dashed field is not shown. CCn is the concentration with n% toxicity to the cells. Conditions beyond the fields shown may differ between rows.

SMILES | read by | value
Cc1c(Cl)ccc2cc(/C=C/c3cccc4c3OCCO4)c(Cl)nc12 | MTT | 90.01 µM
C/C1=C\C=C\C2(C)C=C(CO)C(C)CC23OC([O-])C(C3=O)C(O)/C=C/C2(C)C=C(CO)C(C)CC23OC([O-])C(C3=O)C(O)/C(C)=C/C=C/C2C=C(CO)C(C)CC23OC([O-])C(C3=O)C(O)/C=C/C2(C)C=C(CO)C(C)CC23OC([O-])C(C3=O)C1O |  | >100 µg/mL
COC(=O)[C@H](C)NP(=O)(OC[C@H]1C/C1=C/n1cnc2c(OC)nc(N)nc21)Oc1ccccc1 |  | 2.2 µM
COc1ccc(OC)c(NCc2cnc3nc(N)nc(N)c3c2C)c1 |  | 717 µg/mL
CN1c2c(-c3ccccc3)nn(CC(=O)N/N=C/c3ccccc3[N+](=O)[O-])c2-c2ccccc2S1(=O)=O |  | 45.8 µM
CC(C1=NN=C(N(Cc2ccccc2)c2ccccc2)SC1)N1C(=O)c2ccccc2C1=O |  | 192 µg/mL
Cc1ccc2nc(Cl)c(/C=C/C(=O)c3cccc4ccccc34)cc2c1 | MTS | 13 µM
CCCCCCCCCCCCCCCCC(=O)OC[C@H]1O[C@@H](O[C@H]2CC[C@@]3(C)C(=CC[C@H]4[C@@H]5CC[C@H]([C@H](C)CC[C@@H](CC)C(C)C)[C@@]5(C)CC[C@@H]43)C2)[C@H](O)[C@@H](O)[C@@H]1O |  | >102 µg/mL
CN1c2c(-c3ccccc3)nn(CC(=O)N/N=C/c3ccc(Cl)cc3Cl)c2-c2ccccc2S1(=O)=O |  | 88.9 µM
O=c1[nH]c(=O)n([C@H]2C[C@H](O)[C@@H](CO)S2)cc1CC(F)(F)F |  | >500 µM
Cc1c(Cl)ccc2cc(/C=C/c3sccc3Br)c(Cl)nc12 | MTT | 45.04 µM
CO[C@H]1/C=C/O[C@@]2(C)Oc3c(C)c(OC(C)=O)c4c(c3C2=O)C(=O)C=C(NC(=O)/C(C)=C\C=C\[C@H](C)[C@H](O)[C@@H](C)[C@@H](O)[C@@H](C)[C@H](OC(C)=O)[C@@H]1C)C4=O |  | 5.32 µg/mL
Nc1ccn([C@H]2O[C@@H](CO)C=C2F)c(=O)n1 |  | >100 µM
CCN(CC)c1cc(-c2ccc(O)cc2O)on1 |  | 121 µM
O=[n+]1c2ccccc2n([O-])c2ccccc21.[Cl][Cu][Cl] |  | 28.18 µg/mL
Cc1c(C(=O)Nc2ccccc2)[n+](=O)c2ccccc2n1[O-] |  | 1 µg/mL
O=C1C=C(Nc2ccccc2C(=O)CC(=O)C(=O)Nc2cccc([N+](=O)[O-])c2)c2ccccc2C1=O |  | 20.2 µg/mL
Nc1nc(F)nc2c1ncn2[C@H]1O[C@@H](CO)C=C1F |  | ~173 µM
Cc1c(Cl)ccc2cc(/C=C/c3csc(Cl)c3)c(Cl)nc12 | MTT | 26.5 µM
Cc1c(C(=O)Nc2ccccc2)[n+](=O)c2cc(Cl)ccc2n1[O-] |  | >10 µg/mL
COc1ccc(C(F)(F)F)cc1NCc1cnc2nc(N)nc(N)c2c1C |  | 1.03 µg/mL
Cc1c(Cl)ccc2cc(/C=C/C(=O)c3cccc(Br)c3)c(Cl)nc12 | MTT | 34.01 µM
Nc1ncnc2c1ncn2[C@H]1C[C@]12C[C@H]2CO |  | >100 µM
COc1cccc2c1C(=O)c1c(O)c3c(c(O)c1C2=O)C[C@@](O)(C(C)=O)C[C@@H]3O[C@H]1C[C@H](N(C)C)[C@H](O)[C@H](C)O1 |  | 85 µM
OC(c1cc2c(Cl)cc(Cl)cc2c2cc(C(F)(F)F)ccc12)C1CCCCN1 |  | 0.95 µg/mL
Nc1nc(F)nc2c1ncn2[C@@H]1O[C@@H](CO)C=C1F |  | >100 µM
C/C1=C\C=C\C2(C)C=C(CO[C@H]3O[C@H](CO)[C@H](O)[C@H](O)[C@H]3O)C(C)CC23OC([O-])C(C3=O)C(O)/C=C/C2(C)C=C(CO)C(C)CC23OC([O-])C(C3=O)C(O)/C(C)=C/C=C/C2C=C(CO[C@H]3O[C@H](CO)[C@H](O)[C@H](O)[C@H]3O)C(C)CC23OC([O-])C(C3=O)C(O)/C=C/C2(C)C=C(CO)C(C)CC23OC([O-])C(C3=O)C1O |  | >100 µg/mL
Cc1ccc(NC2=CC(=O)C(=O)c3ccccc32)cc1 |  | 1.95 µg/mL
CCOP(=O)(OCC)C1=NOC(Cn2cc(F)c(=O)[nH]c2=O)C1 |  | >400 µM
O=C(CCCCCCCCc1ccccc1)c1c(O)cc(O)c([C@@H]2C[C@H](c3ccc(O)cc3)Oc3cc(O)ccc32)c1O.O=C(CCCCCCCCc1ccccc1)c1c(O)cc(O)c([C@@H]2C[C@H](c3ccc(O)cc3)Oc3cc(O)ccc32)c1O |  | 8.9 µg/mL
COC(=O)C(Cc1c[nH]c2ccccc12)NP(=O)(O)OCC1C/C1=C/n1cnc2c(N)ncnc21 |  | 91 µM
CC(C1=NNC(=NC2CCCCC2)SC1)N1C(=O)c2ccccc2C1=O |  | 192 µg/mL
[N-]=[N+]=CC(=O)CC[C@H](NC(=O)OCc1ccccc1)C(=O)OCc1ccccc1 |  | 3.26 µg/mL
Nc1ccn([C@H]2O[C@@H](CO)C=C2F)c(=O)n1 |  | >100 µM
CCc1cn([C@H]2C[C@H](O)[C@@H](CO)O2)c(=O)[nH]c1=O |  | 8 µg/mL
C=C1CCC2C(C)(COC(=O)CCCCCCCCCCCCCCC)C(OC(=O)CCCCCCCCCCCCCCC)CCC2(C)C1C/C=C1/CCOC1=O | crystal violet | 73.9 µM
CCN(CC)c1cc(-c2ccc(OC)cc2O)on1 |  | >381 µM
Nc1nc(=O)n([C@H]2O[C@@H](CO)C=C2F)cc1F |  | >100 µM
CCCCCCCCCCCCCCCCCCCC[C@@H](O)C(=O)N[C@@H](CO)[C@H](O)[C@H](O)CCCCCCCCCCCCCC |  | >102 µg/mL
CSc1nsc(C2CCCCC2)c1C#N |  | 50 µM
COc1ccc(-c2cc(N3CCCC3)no2)c(O)c1 |  | >384 µM
CSc1nsc(-c2c(Cl)cccc2Cl)c1C#N |  | 5 µM
Cc1ccc2nc(Cl)c(/C=C/C(=O)c3ccc(Cl)s3)cc2c1 | MTS | 48.2 µM
O=c1[nH]cnc2c1ncn2[C@H]1O[C@@H](CO)C=C1F |  | >100 µM
Cc1ccc(/C=C/c2cc3ccc(Cl)c(C)c3nc2Cl)s1 | MTT | 39.9 µM
CC1=CC(=NC(=O)CBr)C=C/C1=N\S(=O)(=O)c1ccccc1 |  | 0.66 µg/mL
Cc1ccc2nc(Cl)c(/C=C/C(=O)c3cc(C)sc3C)cc2c1 | MTS | 2.4 µM
COc1ccc(-c2cc(N3CCCCC3)no2)c(O)c1 |  | >364 µM
O=C1c2ccccc2C(=O)N1CCCC1=NNC(=Nc2ccccc2)SC1 |  | >111 µg/mL
CSCc1cn([C@H]2C[C@H](O)[C@@H](CO)S2)c(=O)[nH]c1=O |  | >500 µM
O=[N+]([O-])c1nccn1CCCCNc1ccnc2cc(Cl)ccc12 |  | >640 µg/mL
COc1cc(OC)cc(N(C)Cc2cnc3nc(N)nc(N)c3c2C)c1 |  | 222 µg/mL
O=c1[nH]c(=O)n([C@H]2C[C@H](O)[C@@H](CO)O2)cc1I |  | <0.5 µg/mL
Cc1ccc2nc(Cl)c(/C=C/C(=O)c3sccc3C)cc2c1 | MTS | 66.5 µM
Cn1c(=O)cc2c3c(c(N)ccc31)C(=O)c1ccccc1-2 |  | 0.4 µg/mL
NC1=NC2C(N=CN2[C@H]2C[C@@H](CCP(=O)(O)O)CO2)C(=O)N1 | MTT | >100 µg/mL
C=C1CCC2C3(C)COC(C)(C)OC3CCC2(C)C1C/C=C1\C(=O)OCC1OC(C)=O | crystal violet | 5.9 µM
CN1c2c(-c3ccccc3)nn(CC(=O)N/N=C/c3cccc(Cl)c3)c2-c2ccccc2S1(=O)=O |  | 78.5 µM
CCN(CC)c1ccc2nc3c4ccccc4c(=NC(=O)c4ccccc4-c4c5ccc(N(CC)CC)cc5[o+]c5cc(N(CC)CC)ccc45)cc-3oc2c1.[Cl-] |  | 13.87 µg/mL
C/C1=C\C=C\C2(C)C=C(CO[C@H]3O[C@H](CO)[C@H](O)[C@H](O)[C@H]3O)C(C)CC23OC([O-])C(C3=O)C(O)/C=C/C2(C)C=C(CO)C(C)CC23OC([O-])C(C3=O)C(O)/C(C)=C/C=C/C2C=C(CO[C@H]3O[C@H](CO)[C@H](O)[C@H](O)[C@H]3O)C(C)CC23OC([O-])C(C3=O)C(O)/C=C/C2(C)C=C(C=O)C(C)CC23OC([O-])C(C3=O)C1O |  | >100 µg/mL
CN1c2c(-c3ccccc3)nn(CC(=O)N/N=C/c3ccc(Cl)cc3)c2-c2ccccc2S1(=O)=O |  | 20.5 µM
Cc1ccc2nc(Cl)c(/C=C/C(=O)c3ccc4c(c3)OCCO4)cc2c1 | MTS | 15.5 µM
CO[C@H]1/C=C/O[C@@]2(C)Oc3c(C)c(O)c4c(c3C2=O)C2=NC(C)(C)N(c3ccccc3)C2=C(NC(=O)/C(C)=C\C=C\[C@H](C)[C@H](O)[C@@H](C)[C@@H](O)[C@@H](C)[C@H](OC(C)=O)[C@@H]1C)C4=O |  | >10 µg/mL
O=C(CCCCCCCCc1ccccc1)c1c(O)cc(O)c([C@@H]2C[C@@H](c3ccc(O)cc3)Oc3cc(O)ccc32)c1O |  | 13.6 µg/mL
CSc1nsc(-c2ccc[n+](C)c2)c1C#N |  | 1250 µM
CC(C1=NNC(=Nc2ccc(Cl)cc2)SC1)N1C(=O)c2ccccc2C1=O |  | 64.15 µg/mL
Cc1c(CNc2cccc3c2CCCC3)cnc2nc(N)nc(N)c12 |  | 322 µg/mL
Nc1nc(=O)n([C@@H]2O[C@@H](CO)C=C2F)cc1F |  | >100 µM
COC(=O)[C@H](C)NP(=O)(OC[C@@H]1C[C@]12C[C@@H]2n1cnc2c(N)ncnc21)Oc1ccccc1 |  | 27 µM
CCOc1ccc(-c2cc(N(CC)CC)no2)c(O)c1 |  | >362 µM
C=C1CCC2C(C)(COC(=O)CCCCCCCCCCCCCCC)C(OC(=O)CCCCCCCCCCCCCCC)CCC2(C)C1C/C=C1\C(=O)OCC1OC(=O)CCCCCCCCCCCCCCC | crystal violet | 122.1 µM
CC1OC(n2ccc(NC(=O)c3ccc(NC(=O)C(C)(N)CO)cc3)nc2=O)CCC1OC1OC(C)C(N(C)C)C(O)C1O |  | 102.4 µg/mL
CC[C@H](CC[C@@H](C)[C@H]1CC[C@H]2[C@@H]3C[C@@H](O)C4=CC(=O)CC[C@]4(C)[C@H]3CC[C@]12C)C(C)C |  | >102 µg/mL
CCOP(=O)(OCC)C1=NOC(n2cc(F)c(=O)[nH]c2=O)C1 |  | >400 µM
O=c1[nH]c(=O)n([C@H]2C[C@H](O)[C@@H](CO)S2)cc1Cl |  | 59 µM
CCCCC(=O)N/N=C/c1ccc([N+](=O)[O-])s1 |  | 3.89 µg/mL
CSc1nsc(-c2ccc3ccccc3c2)c1C#N |  | 20 µM
C=C1C(=O)C23OC2C1CCC(=O)C1(C)CCC(OC(C)=O)C(C)(C)C1CC3=O |  | 0.14 µg/mL
C=Cc1cn([C@H]2C[C@H](O)[C@@H](CO)S2)c(=O)[nH]c1=O |  | >500 µM
COc1cc2c(c(NC(C)CCCN=C(N)NC(N)=NC(C)C)c1)NCCC2 |  | 56 µg/mL
CC(C1=NNC(=Nc2ccc(F)cc2)SC1)N1C(=O)c2ccccc2C1=O |  | 64.15 µg/mL

7 of the rows above, restated:

| SMILES | read by | value |
|---|---|---|
| Nc1ncnc2c1ncn2[C@H]1C[C@]12C[C@H]2CO |  | >100 µM |
| C=C1C(=O)C23OC2C1CCC(=O)C1(C)CCC(OC(C)=O)C(C)(C)C1CC3=O |  | 0.14 µg/mL |
| COc1ccc(OC)c(NCc2cnc3nc(N)nc(N)c3c2C)c1 |  | 717 µg/mL |
| CO[C@H]1/C=C/O[C@@]2(C)Oc3c(C)c(O)c4c(c3C2=O)C2=NC(C)(C)N(c3ccccc3)C2=C(NC(=O)/C(C)=C\C=C\[C@H](C)[C@H](O)[C@@H](C)[C@@H](O)[C@@H](C)[C@H](OC(C)=O)[C@@H]1C)C4=O |  | >10 µg/mL |
| O=C(CCCCCCCCc1ccccc1)c1c(O)cc(O)c([C@@H]2C[C@H](c3ccc(O)cc3)Oc3cc(O)ccc32)c1O.O=C(CCCCCCCCc1ccccc1)c1c(O)cc(O)c([C@@H]2C[C@H](c3ccc(O)cc3)Oc3cc(O)ccc32)c1O |  | 8.9 µg/mL |
| CCCCCCCCCCCCCCCCCCCC[C@@H](O)C(=O)N[C@@H](CO)[C@H](O)[C@H](O)CCCCCCCCCCCCCC |  | >102 µg/mL |
| Cc1c(CNc2cccc3c2CCCC3)cnc2nc(N)nc(N)c12 |  | 322 µg/mL |